We go through one substance from publication PMC12423841 (ACS Omega, 2025).

The target in assay [1] is SWuhan (SARS-CoV-2 S protein HexaPro, Wuhan-Hu-1 variant) (Severe acute respiratory syndrome coronavirus 2, UniProt P0DTC2, A892P/A899P/A942P/F817P/K986P/V987P). Type of assay: binding. Conditions: read-out: K D values SWuhan.
Assay [2] has as its target SBA.1 (SARS-CoV-2 S protein, Omicron BA.1 variant) (Severe acute respiratory syndrome coronavirus 2, UniProt P0DTC2, A67V/D614G/D796Y/DEL143-145/DEL211-211/DEL69-70/E484A/G142D/G339D/G446S/G496S/H655Y/INS214EPE/K417N/L212I/L981F/N440K/N501Y/N679K/N764K/N856K/N969K/P681H/Q493R/Q498R/Q954H/S371L/S373P/S375F/S477N/T478K/T547K/T95I/Y505H, form not given). Type of assay: binding. The following applies: read-out: K D values SBA.1.

Some results are limits rather than exact numbers.

In the case of iofendylate, the Kd in assay [1] and in assay [2] was greater than 1000 µM in each case.
